According to ChEMBL document CHEMBL3797086, “Synthesis and biological evaluation of novel structural hybrids of benzofuroxan derivatives and fluoroquinolones” (Eur J Med Chem, 2016):

Assays:
Assay type in all cases: functional
Bacillus cereus = assay: Bactericidal activity against Bacillus cereus 8035 incubated for 4 hrs
Staphylococcus aureus = assay: Bactericidal activity against Staphylococcus aureus 209p incubated for 4 hrs
Escherichia coli = assay: Bactericidal activity against Escherichia coli F-50 incubated for 4 hrs
Pseudomonas aeruginosa = assay: Bactericidal activity against Pseudomonas aeruginosa 9027 incubated for 4 hrs

`CCn1cc(C(=O)O)c(=O)c2cc(F)c(N3CCNCC3)cc21.O=[N+]([O-])c1c(Cl)c([N+](=O)[O-])c2no[n+]([O-])c2c1O` was tested, and the MBC (Bacillus cereus) was 31.3 µg/mL, the MBC (Staphylococcus aureus) was 15.6 µg/mL and the MBC (Escherichia coli) was 62.5 µg/mL. For the same compound, the MBC (Pseudomonas aeruginosa) was 62.5 µg/mL.
In the case of `CC1CN(c2c(F)c(N)c3c(=O)c(C(=O)O)cn(C4CC4)c3c2F)CC(C)N1.O=[N+]([O-])c1c(Cl)c([N+](=O)[O-])c2no[n+]([O-])c2c1O` (configuration not stated), the MBC (Bacillus cereus) is reported as 0.78 µg/mL, the MBC (Staphylococcus aureus) is reported as 0.39 µg/mL and the MBC (Escherichia coli) is reported as 3.1 µg/mL. For the same compound, the MBC (Pseudomonas aeruginosa) was 6.3 µg/mL.
In the case of `CC1CN(c2c(F)c(N)c3c(=O)c(C(=O)O)cn(C4CC4)c3c2F)CC(C)N1.O=[N+]([O-])c1cc([N+](=O)[O-])c2no[n+]([O-])c2c1O` (configuration not stated), the MBC (Bacillus cereus) is reported as 3.1 µg/mL, the MBC (Staphylococcus aureus) is reported as 1.9 µg/mL and the MBC (Escherichia coli) is reported as 3.1 µg/mL. The MBC (Pseudomonas aeruginosa) was 6.3 µg/mL.
`O=C(O)c1cn(C2CC2)c2cc(N3CCNCC3)c(F)cc2c1=O.O=[N+]([O-])c1c(Cl)c([N+](=O)[O-])c2no[n+]([O-])c2c1O` was tested, and the MBC (Bacillus cereus) was 3.1 µg/mL, the MBC (Staphylococcus aureus) was 1.5 µg/mL and the MBC (Escherichia coli) was 3.1 µg/mL. It also gave an MBC (Pseudomonas aeruginosa) of 3.1 µg/mL.
For `O=C(O)c1cn(C2CC2)c2cc(N3CCNCC3)c(F)cc2c1=O.O=[N+]([O-])c1cc([N+](=O)[O-])c2no[n+]([O-])c2c1O`, the MBC (Bacillus cereus) was 1.9 µg/mL, the MBC (Staphylococcus aureus) was 1.9 µg/mL and the MBC (Escherichia coli) was 3.1 µg/mL. The MBC (Pseudomonas aeruginosa) was 3.1 µg/mL.
For `CCn1cc(C(=O)O)c(=O)c2cc(F)c(N3CCNC(C)C3)c(F)c21.O=[N+]([O-])c1c(Cl)c([N+](=O)[O-])c2no[n+]([O-])c2c1O` (configuration not stated), the MBC (Bacillus cereus) was 3.1 µg/mL, the MBC (Staphylococcus aureus) was 7.8 µg/mL and the MBC (Escherichia coli) was 62.5 µg/mL. For the same compound, the MBC (Pseudomonas aeruginosa) was 62.5 µg/mL.
In the case of `CCn1cc(C(=O)O)c(=O)c2cc(F)c(N3CCNCC3)cc21.O=[N+]([O-])c1cc([N+](=O)[O-])c2no[n+]([O-])c2c1O`, the MBC (Bacillus cereus) is reported as 7.8 µg/mL, the MBC (Staphylococcus aureus) is reported as 7.8 µg/mL and the MBC (Escherichia coli) is reported as 7.8 µg/mL. It also gave an MBC (Pseudomonas aeruginosa) of 7.8 µg/mL.
For `CCn1cc(C(=O)O)c(=O)c2cc(F)c(N3CCNC(C)C3)c(F)c21.O=[N+]([O-])c1cc([N+](=O)[O-])c2no[n+]([O-])c2c1O` (configuration not stated), the MBC (Bacillus cereus) was 3.9 µg/mL, the MBC (Staphylococcus aureus) was 3.9 µg/mL and the MBC (Escherichia coli) was 62.5 µg/mL. It also gave an MBC (Pseudomonas aeruginosa) of 62.5 µg/mL.
